A mixed list of measured activities; the numbers were collected in NIAID ChemDB.

Shared fields: tests in culture; organism: Rhinovirus; endpoint: EC50

Blank or dashed fields: not listed here. Conditions beyond the fields shown may differ between rows. ECn: concentration that inhibits the pathogen or its effect by n%.

smiles,cells,read by,strain or isolate,value
CN(C)c1nc(C(F)(F)F)nc2c1ncn2Cc1ccc(F)cc1,M-HELA,plaque count,Serotype 13,>8 µM
CO/N=C/c1ccc(OCCC2CCN(c3ccc(C)nn3)CC2)c(C)c1,KB,cytopathic effect / visual reading,TYPE 1A,<0.003 µg/mL
CSc1nsc(-c2ccc(OCCCCOc3ccc([N+](=O)[O-])cc3)cc2)c1C#N,HELA-OHIO,cytopathic effect,Serotype 42 (group A),>0.5 µM
CCOC(=O)c1ccc(OCCC2CCN(c3ccc(C)nn3)CC2)cc1,KB,neutral red,Baylor 3 (LDL receptor group 47),0.033 µM
COC(=O)[C@H](Cc1cccc2ccccc12)Nc1nc2ccc(NC(=O)OC(C)(C)C)c(C)c2c(=O)o1,H1-HELA,XTT,Serotype 10,0.4 µM
Cc1cc(CCCOc2c(C)cc(-c3noc(C(F)(F)F)n3)cc2C)on1,OHIO HELA-I,cytopathic effect / visual reading,Isolate 26,0.1 µg/mL
Cn1c2ccc(Cl)cc2c2n[nH]c(=S)nc21,WI-38,plaque count,1059,20 µg/mL
Cc1ccc(Cn2cnc3c(N(C)C)nc(C(F)(F)F)nc32)cc1,M-HELA,plaque count,Serotype 3,>2.5 µM
CSc1nsc(-c2ccc(OCCCOc3ccc(C#N)cc3)cc2)c1C#N,HELA-OHIO,cytopathic effect,Serotype 51 (group B),>2 µM
Cn1c2ccccc2c2nnc(NCCCO)nc21,WI-38,plaque count,1059,50 µg/mL
CCO/N=C/c1cccc(OCCC2CCN(c3ccc(Cl)nn3)CC2)c1,MRC-5,cytopathic effect / visual reading,TYPE 2,<0.001 µg/mL
Cc1cc(CCCOc2c(C)cc(-c3noc(C(F)(F)F)n3)cc2C)on1,-,-,Serotype 14,<0.16 µM
Cc1cc(CCCCCOc2c(Cl)cc(C3=NCCO3)cc2Cl)on1,HeLa,plaque count,TYPE 2,0.09 µg/mL
Cn1c2ccccc2c2nnc(N3CCOCC3)nc21,WI-38,plaque count,1059,100 µg/mL
CSc1nsc(-c2ccc(OC(C)(C)C)cc2)c1C#N,HELA-OHIO,cytopathic effect,Serotype 39 (group B),5 µM
COc1ccc(Cn2cnc3c(N(C)C)nc(C(F)(F)F)nc32)cc1C,M-HELA,plaque count,Serotype 13,>8 µM
COc1ccc(-c2snc(SC)c2C#N)cc1,HELA-OHIO,cytopathic effect,Serotype 63 (group B),>12 µM
CSc1nsc(-c2ccc(OCCCc3ccccc3)cc2)c1C#N,HELA-OHIO,cytopathic effect,Serotype 85 (group B),5 µM
CO/N=C(\C)c1ccc(OCCC2CCN(c3ccc(Cl)nn3)CC2)c(OC)c1,KB,cytopathic effect / visual reading,TYPE 1A,<0.0032 µg/mL
Fc1cccc(Cn2cnc3c(Nc4cccc(F)c4)nc(C(F)(F)F)nc32)c1,M-HELA,plaque count,Serotype 23,1.1 µM
CSc1nsc(-c2ccc(O)cc2)c1C#N,HELA-OHIO,cytopathic effect,Serotype 42 (group A),>10 µM
CSc1nsc(-c2ccc(OCCCOc3ccccc3)cc2)c1C#N,HELA-OHIO,cytopathic effect,Serotype 85 (group B),>20 µM
N#CCO/N=C/c1ccc(OCCC2CCN(c3ccc(Cl)nn3)CC2)cc1,KB,cytopathic effect / visual reading,TYPE 1A,<0.0032 µg/mL
CCOC(=O)c1ccc(OCCCCOc2ccc(-c3snc(SC)c3C#N)cc2)cc1,HELA-OHIO,cytopathic effect,Serotype 51 (group B),>2 µM
CN(C)c1nc(C(F)(F)F)nc2c1ncn2Cc1ccc(S(C)(=O)=O)cc1,M-HELA,plaque count,Serotype 5,>8 µM
CN(C)c1ccc(Cn2cnc3c(Nc4cccc(F)c4)nc(C(F)(F)F)nc32)cc1,M-HELA,plaque count,Serotype 2,130 µM
CCOC(=O)/C=C/[C@H](C[C@@H]1CCNC1=O)NC(=O)[C@H](Cc1ccc(F)cc1)NC(=O)[C@@H](NC(=O)c1cc(C)on1)C(C)(C)C,H1-HELA,XTT,Serotype 1A,0.03 µM
CO/N=C/c1cccc(OCCC2CCN(c3ccc(Cl)nn3)CC2)c1,KB,cytopathic effect / visual reading,TYPE 1A,<0.0032 µg/mL
CCOC(=O)/C=C/[C@H](C[C@@H]1CCNC1=O)NC(=O)[C@H](Cc1ccc(F)cc1)NC(=O)[C@@H](NC(=O)c1cc(C)on1)C(C)C,-,-,Serotype 1A,<0.14 µM
CCC(CO)Nc1nnc2c3ccccc3n(C)c2n1,WI-38,plaque count,HGP,100 µg/mL
CSc1nsc(-c2ccc(OCCCCOc3ccccc3)cc2)c1C#N,HELA-OHIO,cytopathic effect,Serotype 59 (group B),>20 µM
Cn1c(O)c(N=NC(N)=S)c2ccccc21,WI-38,plaque count,HGP,22 µg/mL
CC1=CC(C(=O)N[C@H](C(=O)C[C@@H](Cc2ccc(F)cc2)C(=O)N[C@H](/C=C2\CCOC2=O)CCC(N)=O)C(C)C)NO1,H1-HELA,XTT,Serotype 14,0.18 µM
Cc1ccccc1Cn1cnc2c(N(C)C)nc(C(F)(F)F)nc21,M-HELA,plaque count,Serotype 15,>8 µM
Clc1ccc(N2CCC(CCOc3ccc(/C=N/OCc4ccccc4)cc3)CC2)nn1,KB,cytopathic effect / visual reading,TYPE 1A,>1 µg/mL
CSc1nsc(-c2ccc(OCCOc3ccccc3)cc2)c1C#N,HELA-OHIO,cytopathic effect,Serotype 9 (group B),>20 µM
CN(C)c1nc(C(F)(F)F)nc2c1ncn2Cc1ccc(Cl)c(NC=O)c1,M-HELA,plaque count,Serotype 4,>8 µM
CCO/N=C/c1cc(C)c(OCCCc2cc(C)no2)c(C)c1,KB,cytopathic effect / visual reading,TYPE 1A,<0.16 µg/mL
Cn1c2ccccc2c2nnc(NCCCCCCO)nc21,WI-38,plaque count,33342,6 µg/mL
CN(C)c1nc(C(F)(F)F)nc2c1ncn2Cc1ccccc1Cl,M-HELA,plaque count,Serotype 13,>8 µM
CSc1nsc(-c2ccc(OCCCCOc3ccc(C#N)cc3)cc2)c1C#N,HELA-OHIO,cytopathic effect,Serotype 63 (group B),>2 µM

Repeating the final 6 entries:

smiles	cells	read by	strain or isolate	value
CSc1nsc(-c2ccc(OCCOc3ccccc3)cc2)c1C#N	HELA-OHIO	cytopathic effect	Serotype 9 (group B)	>20 µM
CN(C)c1nc(C(F)(F)F)nc2c1ncn2Cc1ccc(Cl)c(NC=O)c1	M-HELA	plaque count	Serotype 4	>8 µM
CCO/N=C/c1cc(C)c(OCCCc2cc(C)no2)c(C)c1	KB	cytopathic effect / visual reading	TYPE 1A	<0.16 µg/mL
Cn1c2ccccc2c2nnc(NCCCCCCO)nc21	WI-38	plaque count	33342	6 µg/mL
CN(C)c1nc(C(F)(F)F)nc2c1ncn2Cc1ccccc1Cl	M-HELA	plaque count	Serotype 13	>8 µM
CSc1nsc(-c2ccc(OCCCCOc3ccc(C#N)cc3)cc2)c1C#N	HELA-OHIO	cytopathic effect	Serotype 63 (group B)	>2 µM